Data set [1] deals with apo-locked IscR (IscR-C92A) (Escherichia coli) (UniProt P0AGK8). The experiment in a line: fluorescence anisotropy. The note with it: labeled probe of the competition assay; 40 mM Tris pH 7.9, 150 mM KCl, 100 ng/ul salmon sperm DNA, room temperature, 12 min; 5 nM TAMRA-hya, competitor 8-1000 nM; recombinant protein; residues 1-162; label: 5' TAMRA on top strand. (In general: Polarisation of emitted light reports the rotation of a fluorescent probe.)

For data set [2] the target is unchanged. The data set can be described thus: fluorescence anisotropy competition. Particulars: recombinant protein, residues 1-162.

For at least one entry, the source does not settle the construct or the ends of the probe. For part of these data: At least one verdict rests on a figure or table, not on a statement of the authors.

By IC50 is commonly meant the point on the concentration scale where inhibition reaches its midpoint.

For the sequence “ATAAATCCACACAGTTTGTATTGTTTTGTG (double strand) [TAMRA-hya type 2 site (probe)]”, the binding result in data set [1] is reported as “binds”.
Turning to “ATAAATCCACACAGTTTGTATTGTTTTGTG (double strand) [hya type 2 site (unlabeled competitor)]”, the IC50 in data set [2] (clusterless IscR, 5 nM TAMRA-hya probe, IscR 59 nM or 90 nM (Methods), 40 mM Tris pH 7.9, 150 mM KCl, 100 ng/ul salmon sperm DNA, room temperature, 12 min, 5 nM TAMRA-hya, competitor 8-1000 nM) amounted to 61 nM.
For “TTTAAAACCATATATACAGTATGGTAATTGTATT (double strand) [lcrF (yscW-lcrF promoter type 2 site)]”, in data set [2], the IC50 was 27 nM.

These data come from article PMC4055776.
